Source: article PMC7116727

Target: S1 component of the furin-cleaved SARS-CoV-2 spike (SARS-CoV-2) (UniProt P0DTC2)
Test: cryo-EM structure

## S1 component of the furin-cleaved SARS-CoV-2 spike (from UniProt P0DTC2 14-685) (domain or fragment)
  stoichiometry N: 3
